Earlier results on one substance are cited in paper PMC9962416.

This data set deals with TLR4 (Homo sapiens) (UniProt O00206). The data set can be described thus: SPR.

Take “SARS-CoV-2 spike protein (trimer) (from UniProt P0DTC2)”: the Kd is 300 nM.
